Measurements reported in US20220220106A1, “QUINOLINE COMPOUNDS AND PHARMACEUTICAL COMPOSITIONS AND USES THEREOF” (Academy of Military Medical Sciences, priority 2019, published 2022).

system: Enterovirus 71 (EV71) H strain; assay: In vitro anti-EV71 activity (antiviral activity in RD cells, CellTiter-Glo); assay type: cell-based; details: selection index SI=TD50/IC50
Procedure: According to the mass and molecular weight of the compound to be tested, the compound to be tested was dissolved to 100 mM (mmol/L) with DMSO.
Detection of Antiviral Activity:
(1) First, the compound to be tested was diluted to 800 μM with cell maintenance solution (DMEM+2% FBS, Gibco, catalog numbers: 11995-065, 1600-044), and three-fold gradient dilution was performed to prepare 10 concentrations in total. The diluted compound was added to a 96-well plate with white wall and transparent bottom, 50 μl per well. To both the cell control group and the virus control group, an equal volume of the cell maintenance solution was added.
(2) EV71 virus (purchased from ATCC) was taken out from the −80° C. refrigerator and equilibrated to room temperature.
(3) The virus seed was diluted with a virus growth solution (DMEM+2% FBS, Gibco, catalog numbers: 11995-065, 1600-044) to 100TCID50, the diluted virus seed was added to the 96-well plate of (1), with […] per well. The same volume of the virus growth solution was added to the cell control group.
(4) RD cells (purchased from ATCC) were inoculated at a concentration of 1*10^5/mL into the 96-well plate of (1), with 100 μL per well, to reach a final volume of 200 μL per well. The final concentration of drug was 0.25 times the initial concentration.
(5) RD cells were cultured at 37° C. for 4 days for testing.
(6) The Buffer of CellTiter-Glo® luminescent cell viability assay reagent (Promega) was mixed with the substrate in the dark to prepare a working solution.
(7) The culture medium in the plate was discarded, the plate was dried by patting, 100 μL of the detection reagent was added to each well, and the 96-well plate was shaken on an orbital shaker for 4 minutes to induce cell lysis. After keeping in the dark and subjecting to signal stabilization for 15 minutes, the chemiluminescence unit was detected by using MD5 microplate reader (Molecular Devices), and the plate reading program was performed according to the CellTiter-Glo preset program.
The inhibition rate-concentration curve was fitted to S-curve by using origin8.0 software to calculate the IC50 value of the compound to be tested.
The formula for calculating the inhibition rates of drug at different dilution degrees was as follows: inhibition rate (%)=(average value of cell control group−value of experimental group)/(average value of cell control group−minimum value of experimental group)*100
The inhibition rate-concentration curve was fitted to S-curve by using origin8.0 software, and the IC50 value of the compound to be tested was calculated. The same method was used to calculate the TD50 value, and the selection index SI=TD50/IC50 was calculated according to the half maximal inhibitory concentration IC50 and the median toxic dose TD50.

| SMILES | SI |
| --- | --- |
| NC(=O)/C=C/c1ccc2ncc3oc(=O)n(-c4cccc(C(F)(F)F)c4)c3c2c1 [HTL-6-30, (E)-8-(2-carbamoyl-vinyl)-1-[3-(trifluoromethyl)phenyl]oxazolo[5,4-c]quinolin-2(1H)-one] | 1.89 |
| NC(=O)c1ccc(-c2ccc3ncc4oc(=O)n(-c5cccc(C(F)(F)F)c5)c4c3c2)cc1 [HTL-5-21, 8-(4-carbamoyl)phenyl-1-[3-(trifluoromethyl)phenyl]oxazolo[5,4-c]quinolin-2(1H)-one] | 3.48 |
| O=c1ccc2cnc3ccc(-c4ccc(N5CCCC5)nc4)cc3c2n1-c1cccc(C(F)(F)F)c1 [HTL-7-20, 9-[3-(6-pyrrolidinyl)pyridyl]-2-oxo-1-[3-(trifluoromethyl)phenyl]-1,2-dihydrobenzo[h][1,6]naphthyridine] | 17.90 |
| CC(=O)/C=C/c1cnc2ccc(-c3ccc(N)nc3)cc2c1Nc1cccc(C(F)(F)F)c1 [HTL-2-34, (E)-6-[3-(6-amino)pyridyl]-4-[3-(trifluoromethyl)phenyl]aminoquinoline-3-butenone] | 2.80 |
| CCOC(=O)/C=C/c1ccc2ncc3oc(=O)n(-c4cccc(C(F)(F)F)c4)c3c2c1 [WSX-1-13, (E)-8-(2-ethoxycarbonyl-vinyl)-1-[3-(trifluoromethyl)phenyl]oxazolo[5,4-c]quinolin-2(1H)-one] | 0.74 |
| O=C(Cc1ccccc1)Nc1ccc(-c2ccc3ncc4ccc(=O)n(-c5cccc(C(F)(F)F)c5)c4c3c2)cn1 [HTL-7-10, 9-[3-(6-phenylacetylamino)pyridyl]-2-oxo-1-[3-(trifluoromethyl)phenyl]-1,2-dihydrobenzo[h][1,6]naphthyridine] | 1.90 |
| Cc1noc(C)c1-c1ccc2ncc3ccc(=O)n(-c4cccc(C(F)(F)F)c4)c3c2c1 [HTL-7-12, 9-[4-(3,5-dimethyl)isoxazolyl]-2-oxo-1-[3-(trifluoromethyl)phenyl]-1,2-dihydrobenzo[h][1,6]naphthyridine] | >5.42 |
| COc1ccc(-c2ccc3ncc4ccc(=O)n(-c5cccc(C(F)(F)F)c5)c4c3c2)cn1 [HTL-7-03, 9-[3-(6-methoxy)pyridyl]-2-oxo-1-[3-(trifluoromethyl)phenyl]-1,2-dihydrobenzo[h][1,6]naphthyridine] | 3.25 |
| CC(C)(C)OC(=O)Nc1ccc(-c2ccc3ncc4ccc(=O)n(-c5cccc(C(F)(F)F)c5)c4c3c2)cn1 [HTL-7-21, 9-[3-(6-tert-butoxycarbonylamino)pyridyl]-2-oxo-1-[3-(trifluoromethyl)phenyl]-1,2-dihydrobenzo[h][1,6]naphthyridine] | 0.33 |
| CCCC(=O)Nc1ccc(-c2ccc3ncc4ccc(=O)n(-c5cccc(C(F)(F)F)c5)c4c3c2)cn1 [HTL-7-05, 9-[3-(6-butyrylamino)pyridyl]-2-oxo-1-[3-(trifluoromethyl)phenyl]-1,2-dihydrobenzo[h][1,6]naphthyridine] | 5.77 |
| Cc1ccc(-c2ccc3ncc4oc(=O)n(-c5cccc(C(F)(F)F)c5)c4c3c2)cn1 [HTL-5-23, 8-[3-(6-methyl)pyridyl]-1-[3-(trifluoromethyl)phenyl]oxazolo[5,4-c] quinolin-2(1H)-one] | 3.53 |
| Nc1ccc(-c2ccc3ncc4oc(=O)n(-c5cccc(C(F)(F)F)c5)c4c3c2)cn1 [HTL-4-32, 8-[3-(6-amino)pyridyl]-1-[3-(trifluoromethyl)phenyl]oxazolo[5,4-c]quinolin-2(1H)-one] | 2.60 |
| CN1CCN(c2ccc(-c3ccc4ncc5ccc(=O)n(-c6cccc(C(F)(F)F)c6)c5c4c3)cn2)CC1 [HTL-7-17, 9-{3-[6-(4-methylpiperazin-1-yl)pyridyl]}-2-oxo-1-[3-(trifluoromethyl)phenyl]-1,2-dihydrobenzo[h][1,6]naphthyridine] | 1.80 |
| COc1ncc(-c2ccc3ncc4ccc(=O)n(-c5cccc(C(F)(F)F)c5)c4c3c2)cn1 [HTL-7-06, 9-[5-(2-methoxy)pyrimidyl]-2-oxo-1-[3-(trifluoromethyl)phenyl]-1,2-dihydrobenzo[h][1,6]naphthyridine] | 3.40 |
| O=c1ccc2cnc3ccc(-c4ccc(N5CCOCC5)nc4)cc3c2n1-c1cccc(C(F)(F)F)c1 [HTL-7-18, 9-[3-(6-morpholin-4-yl)pyridyl]-2-oxo-1-[3-(trifluoromethyl)phenyl]-1,2-dihydrobenzo[h][1,6]naphthyridine] | 1.62 |
| Nc1cncc(Nc2ccc3ncc4ccc(=O)n(-c5cccc(C(F)(F)F)c5)c4c3c2)c1 [HTL-6-29, 9-[3-(5-aminopyridyl)]imino-2-oxo-1-[3-(trifluoromethyl)phenyl]-1,2-dihydrobenzo[h][1,6]naphthyridine] | 16.37 |
| O=c1ccc2cnc3ccc(C4=CCC5(CC4)OCCO5)cc3c2n1-c1cccc(C(F)(F)F)c1 [HTL-7-13, 9-(1,4-dioxa-spiro[4.5]dec-7-en-8-yl)-2-oxo-1-[3-(trifluoromethyl)phenyl]-1,2-dihydrobenzo[h][1,6]naphthyridine] | 7.59 |
| Nc1cccc(Nc2ccc3ncc4ccc(=O)n(-c5cccc(C(F)(F)F)c5)c4c3c2)n1 [HTL-6-12, 9-[2-(6-aminopyridyl)]imino-2-oxo-1-[3-(trifluoromethyl)phenyl]-1,2-dihydrobenzo[h][1,6]naphthyridine] | 4.22 |
| CC(=O)Nc1ccc(Nc2ccc3ncc4ccc(=O)n(-c5cccc(C(F)(F)F)c5)c4c3c2)cc1 [HTL-6-27, 9-(4-acetylaminophenyl)imino-2-oxo-1-[3-(trifluoromethyl)phenyl]-1,2-dihydrobenzo[h][1,6]naphthyridine] | 1.49 |
| O=c1ccc2cnc3ccc(-c4ccc(F)nc4)cc3c2n1-c1cccc(C(F)(F)F)c1 [HTL-7-01, 9-[3-(6-fluoro)pyridyl]-2-oxo-1-[3-(trifluoromethyl)phenyl]-1,2-dihydrobenzo[h][1,6]naphthyridine] | 3.29 |
| O=C1Cc2cc(-c3ccc4ncc5ccc(=O)n(-c6cccc(C(F)(F)F)c6)c5c4c3)ccc2N1 [HTL-7-04, 9-[5-(2-oxo)indolyl]-2-oxo-1-[3-(trifluoromethyl)phenyl]-1,2-dihydrobenzo[h][1,6]naphthyridine] | 0.98 |
| Nc1cccc(Nc2ccc3ncc4ccc(=O)n(-c5cccc(C(F)(F)F)c5)c4c3c2)c1 [HTL-6-11, 9-(3-aminophenyl)imino-2-oxo-1-[3-(trifluoromethyl)phenyl]-1,2-dihydrobenzo[h][1,6]naphthyridine] | 8.52 |
| NC(=O)/C=C/c1ccc2ncc3ccc(=O)n(-c4cccc(C(F)(F)F)c4)c3c2c1 [HTL-7-24, (E)-9-(2-carbamoyl-vinyl)-2-oxo-1-[3-(trifluoromethyl)phenyl]-1,2-dihydrobenzo[h][1,6]naphthyridine] | 1.67 |
| NC(=O)NC/C=C/c1ccc2ncc3ccc(=O)n(-c4cccc(C(F)(F)F)c4)c3c2c1 [HTL-7-25, (E)-9-[3-ureido-propenyl]-2-oxo-1-[3-(trifluoromethyl)phenyl]-1,2-dihydrobenzo[h][1,6]naphthyridine] | 10.78 |
| CCCCC(=O)Nc1ccc(-c2ccc3ncc4ccc(=O)n(-c5cccc(C(F)(F)F)c5)c4c3c2)cn1 [HTL-7-08, 9-[3-(6-valerylamino)pyridyl]-2-oxo-1-[3-(trifluoromethyl)phenyl]-1,2-dihydrobenzo[h][1,6]naphthyridine] | 3.50 |
| CC(=O)/C=C/c1cnc2ccc(-c3ccc(C)nc3)cc2c1Nc1cccc(C(F)(F)F)c1 [HTL-2-38, (E)-6-[3-(6-methyl)pyridyl]-4-[3-(trifluoromethyl)phenyl]aminoquinoline-3-butenone] | 3.06 |
